Measured values from several laboratories, pooled; numbers as filed in NIAID ChemDB.

Common to all: growth or infection tests; agent: Candida albicans

MIC50, MIC90 and the like: level of inhibition, or share of isolates inhibited. Conditions beyond the fields shown may differ between rows. Two numbers with a dash give a range or band. An empty or dashed field is not shown. ECn is the concentration giving n% inhibition of infection, replication or growth.

smiles | strain | read-out | read by | changes | value
c1ccc2c(c1)cc1[nH]c3ccccc3c1[n+]2CC1CC1 | B311 | MIC |  |  | 250 µg/mL
COc1ccc(C(=O)/C=C/c2ccc(C(=O)N3C/C(=C\c4ccccc4)C(=O)/C(=C/c4ccccc4)C3)cc2)cc1 | 1 clinical isolate | MIC |  |  | >32 µg/mL
Cc1cc(C)c(C(=O)/C=C/c2cc3ccccc3nc2Cl)o1 | ATCC 10231 | MIC |  |  | >50 µg/mL
COc1ccc(C(=O)/C=C/c2ccc(C(=O)N3C/C(=C/c4ccccc4)C(=O)/C(=C\c4ccccc4)C3)cc2)cc1OC | 1 clinical isolate | MIC |  |  | >32 µg/mL
N[C@H]1C=CCO[C@H]1C(=O)O |  | EC50 |  |  | 64 µg/mL
COc1ccc([Se][Se]c2ccc(OC)cc2)cc1 |  | MIC | broth dilution |  | 4–32 µg/mL
O=C(O)c1ccc(/C=C/C(=O)c2ccccc2)cc1 | 1 clinical isolate | MIC |  |  | >32 µg/mL
Cc1cccnc1-n1[se]c2ccccc2c1=O |  | MIC |  |  | >500 µg/mL
C[C@H]1OO[C@@H](CC(=O)OCC2[C@H]3C[C@@H]4C[C@H](C3)C(Br)[C@H]2C4)[C@H]2O[C@H]21 |  | EC50 |  |  | >1000 µM
COP(=O)(OC)OC[C@@H](O)[C@@H](O)[C@H](O)[C@@H](N)CO | ATCC26278 | MIC |  |  | 300 µg/mL
S=c1[nH]nc(Sc2ccc3c(Cl)ccnc3c2)s1 | ATCC 90028 | EC50 | resazurin |  | >50 µg/mL
CN(C/C=C/C#CC(C)(C)C)Cc1cccc2ccccc12 | 81 strains | MIC |  |  | 9.59 µg/mL
O=C(O)c1ccc(/C=C/C(=O)c2ccc(O)cc2)cc1 | 1 clinical isolate | MIC |  |  | >32 µg/mL
CC1(C)C[C@H](N)[C@H](C(=O)O)C1 |  | EC50 |  |  | 256 µg/mL
C1C2CC3CC1CC(C2)C3[C@H]1OO[C@@H](C2C3CC4CC(C3)CC2C4)[C@@H]2O[C@@H]21 |  | EC50 |  |  | >1000 µM
C[C@@H]1[C@H](O)[C@@H](C)/C=C/C=C/CC/C=C/C=C/C=C/C=C/C(O[C@H]2O[C@H](C)[C@@H](O)[C@H](N)[C@@H]2O)CC2O[C@](O)(CC(O)C(O)CCC(O)CC(O)CC(O)CC(=O)O[C@H]1C)CC(O)C2C(=O)O | MTCC 227 | MIC | broth dilution |  | 1000 µg/mL
NC(=O)c1cccc(F)c1SSc1c(F)cccc1C(N)=O | ATCC 2091 | MIC |  |  | 30 µg/mL
COc1ccc(/C=C/C(=O)c2ccccc2)c(OC)c1 | ATCC 10231 | MIC |  |  | >50 µg/mL
C[C@H]1OO[C@@H](CC(=O)OCC2C3CC4CC(C3)CC2C4)[C@@H]2O[C@@H]21 |  | EC50 |  |  | >1000 µM
C[C@@H]1O[C@@H](O[C@@H]2[C@@H](O)[C@H](OCCc3ccc(O)c(O)c3)O[C@@H](CO)[C@H]2OC(=O)/C=C/c2ccc(O)c(O)c2)[C@H](O)[C@H](O)[C@H]1O | ATCC 10231 | MFC | broth dilution |  | 250 µg/mL
CCCCNC(=O)c1ccc(C(F)(F)F)cc1SSc1cc(C(F)(F)F)ccc1C(=O)NCCCC | ATCC 2091 | MIC |  |  | 7.5 µg/mL
Clc1ccc(-c2c(C(c3ccccc3)n3ccnc3)cnn2-c2ccc(Cl)cc2Cl)cc1 |  | MBC |  |  | 11.1 µM
C[C@H]1OO[C@@H](CC(=O)OC2C3CC4CC(C3)CC2C4)[C@@H]2O[C@@H]21 |  | EC50 |  |  | 250–500 µM
COc1cc(C(=O)OCCc2ccc(O)cc2)ccc1O | ATCC 10231 | MFC | broth dilution |  | 250 µg/mL
COc1cccc(/C=C/C(=O)c2ccc(Br)cc2)c1 | ATCC 10231 | MIC |  |  | >50 µg/mL
Clc1ccccc1C(c1ccccc1)(c1ccccc1)n1ccnc1 | 505 | MIC |  |  | <2 µg/mL
NC(=S)c1ncn([C@@H]2O[C@H](CO)[C@@H](O)[C@H]2O)c1S |  | MIC |  |  | 0.05 µM
CN1c2ccccc2N(CCc2ccccc2)C1C(=S)Nc1ccccc1 |  | MIC |  |  | 800 µg/mL
O=c1[nH]sc2ccc(C(F)(F)F)cc12 | ATCC 2091 | MIC |  |  | 10 µg/mL
O=[N+]([O-])/C=C/c1c(-c2ccccc2)[nH]c2ccccc12 |  | MIC |  |  | 400 µg/mL
CC(C)=CCC/C(C)=C/CC/C(C)=C/CC[C@@]1(C)[C@H](CCCO)/C(=C(/C)C=O)CC[C@]1(C)O | SR76 | MIC |  |  | >50 µg/mL
C/C(=C\c1c(C)n(C)c2ccccc12)[N+](=O)[O-] |  | MIC |  |  | 400 µg/mL
COc1ccc2c(c1OC)CN1CCc3cc4c(cc3C1C2)OCO4 | Clinical isolate | MIC80 | broth dilution | Fluconazole-resistant | >64 µg/mL
C[C@H](NC(=O)[C@H](Cc1ccccc1)NC(=O)[C@@H](N)CCCCN)C(=O)N[C@@H](CCCCN)C(=O)O | 10231 | MIC |  |  | >500 µg/mL
O=C1/C(=C/c2ccccc2)CN(C(=O)/C=C/c2ccccc2)C/C1=C\c1ccccc1 | 1 clinical isolate | MIC |  |  | >32 µg/mL
CCN1c2ccccc2N(CCc2ccccc2)C1C(=S)Nc1ccccc1 |  | MIC |  |  | 400 µg/mL
CN1CCC2=C(CCCC2(Cc2ccccc2)Cc2ccccc2)C1 | C316 | MIC |  |  | 62 µg/mL
Cc1ccc(-n2[se]c3ccccc3c2=O)nc1 |  | MIC |  |  | >500 µg/mL
CCCC(N)CC(=O)O |  | EC50 |  |  | >256 µg/mL
O=c1c(-c2ccc(O)cc2)coc2cc(OCCN3CCCC3)cc(O)c12 |  | MIC | MTT |  | >50 µg/mL
C[n+]1cccc2c(=O)n(-c3ccccn3)[se]c21 |  | MIC |  |  | >500 µg/mL
C[C@@H]1[C@H](O)[C@@H](C)/C=C/C=C/CC/C=C/C=C/C=C/C=C/C(O[C@H]2O[C@H](C)[C@@H](O)[C@H](N)[C@@H]2O)CC2O[C@](O)(CC(O)C(O)CCC(O)CC(O)CC(O)CC(=O)O[C@H]1C)CC(O)C2C(=O)O | ATCC 10231 | MIC |  |  | 5 µg/mL
O=c1c2cccnc2[se]n1N(c1ccccc1)c1cc(Cl)ccn1 |  | MIC |  |  | >500 µg/mL
COc1cc(O)c2c(c1)C(=O)c1c(cc3c(c1O)-c1c(cc(C)c(C(=O)N[C@H](CO)C(=O)O)c1O)[C@H](O[C@@H]1O[C@H](C)[C@H](O)[C@H](O)[C@H]1O)[C@H]3O)C2=O | A9540 | MIC |  |  | 3.1 µg/mL
S=C(S)C1N(CCc2ccccc2)c2ccccc2N1CCc1ccccc1 |  | MIC |  |  | 200 µg/mL
Cc1nc2cc(Sc3n[nH]c(=S)s3)ccc2s1 | ATCC 90028 | EC50 | resazurin |  | >50 µg/mL
O=c1c(-c2ccc(O)cc2)coc2cc(OCCN3CCCCC3)cc(O)c12 |  | MIC | MTT |  | >50 µg/mL
Cc1cnccc1CCCc1ccccc1 | 1208E | MIC |  |  | 16 µg/mL
OC(Cn1cncn1)(Cn1cncn1)c1ccc(F)cc1F | YL 345 | MIC | broth dilution |  | >512 µg/mL
CN1CCC2=C(CCCC2CCc2cccc(Cl)c2)C1 | 2381E | MIC |  |  | 16 µg/mL
CCN1c2ccccc2N(CCc2ccccc2)C1C1C(=O)N(c2ccccc2)C(=O)N1c1ccccc1 |  | MIC |  |  | 50 µg/mL
COC(=O)/C=C1/NN=C(c2ccccn2)N(c2ccccn2)C1=O | Clinical isolates (2 strains) | MIC50 | agar diffusion |  | 256 µg/mL
Clc1ccc(CCC2CCCc3cnccc32)cc1 | 2402E | MIC |  |  | 8 µg/mL
O=c1c(-c2ccc(O)cc2)coc2cc(OCCCBr)cc(O)c12 |  | MIC | MTT |  | >50 µg/mL
c1ccc2c(c1)cc1[nH]c3ccccc3c1[n+]2CC1CCC1 | B311 | MIC |  |  | 125 µg/mL
CCCCN(CCCC)CCCCOc1cc(O)c2c(=O)c(-c3ccc(O)cc3)coc2c1 |  | MIC | MTT |  | >50 µg/mL
CO[C@@H]1CC[C@H](O)c2c1oc1c3c4c(c(O)c1c2=O)-c1c(cc2cc(C)n(N)c(=O)c2c1O)C[C@H]4OCO3 | 6 strains | MIC |  |  | ~55 µg/mL
O=c1c(-c2ccc(O)cc2)coc2cc(OCCCn3ccnc3)cc(O)c12 |  | MIC | MTT |  | >50 µg/mL
c1ccc([Se][Se]c2ccccc2)cc1 |  | MFC | broth dilution |  | 8–32 µg/mL
O=c1c(-c2ccc(O)cc2)coc2cc(OCCCCn3cnc4ccccc43)cc(O)c12 |  | MIC | MTT |  | >50 µg/mL
Clc1ccc(-c2c(C(c3ccccc3)n3ccnc3)cnn2-c2ccc(Cl)cc2)cc1 |  | MBC |  |  | 66.6 µM
C1=C[C@H](C2C3CC4CC(C3)CC2C4)OO[C@@H]1C1C2CC3CC(C2)CC1C3 |  | EC50 |  |  | >1000 µM
C/C(=C\c1c(C)[nH]c2ccccc12)[N+](=O)[O-] |  | MIC |  |  | 25 µg/mL
c1ccc(CCCCC[n+]2c3ccccc3cc3[nH]c4ccccc4c32)cc1 | B311 | MIC |  |  | 125 µg/mL
NC(=O)c1cccc(C(F)(F)F)c1SSc1c(C(N)=O)cccc1C(F)(F)F | ATCC 2091 | MIC |  |  | 30 µg/mL
N[C@H]1CC[C@H]1C(=O)O |  | EC50 |  |  | 128 µg/mL
C[C@H]1[C@H](O)[C@@H](C)/C=C/C=C/C=C/C=C/C=C/C=C/C=C/[C@H](O[C@@H]2O[C@H](C)[C@@H](O)[C@H](N)[C@@H]2O)C[C@@H]2O[C@](O)(C[C@@H](O)C[C@@H](O)CC[C@H](O)[C@@H](O)C[C@@H](O)CC(=O)O[C@H]1C)C[C@H](O)[C@H]2C(=O)O |  | MBC |  |  | 3.7 µM
c1ccc(CCCCCCCC[n+]2c3ccccc3cc3[nH]c4ccccc4c32)cc1 | B311 | MIC |  |  | 10 µg/mL
N[C@H]1CCN[C@H]1C(=O)O |  | EC50 |  |  | >256 µg/mL
O=c1c2ccccc2[se]n1-c1ccccc1 |  | MIC |  |  | 128 µg/mL
S=c1[nH]nc(Sc2ccc(Cl)nn2)s1 | ATCC 90028 | EC50 | resazurin |  | >50 µg/mL
COc1cc(O)c(C(C)=O)c(OC)c1 | FCF-243 | MFC |  |  | >500 µg/mL
O=[N+]([O-])/C=C/c1c[nH]c2ccccc12 |  | MFC |  |  | >1600 µg/mL
N[C@H]1CC(F)(F)C[C@H]1C(=O)O |  | EC50 |  |  | 128 µg/mL
Clc1ccc(COC(Cn2ccnc2)c2ccc(Cl)cc2Cl)cc1 | 505 | MIC |  |  | <2 µg/mL
O=c1c(-c2ccc(O)cc2)coc2cc(OCCCCN3CCNCC3)cc(O)c12 |  | MIC | MTT |  | >50 µg/mL
O=c1c2cccnc2[se]n1C1CCCCC1 |  | MIC |  |  | >500 µg/mL
C=C1C[C@H](NCC)[C@H](C(=O)O)C1 |  | EC50 |  |  | 128 µg/mL
CCCN(CCC)CCCOc1cc(O)c2c(=O)c(-c3ccc(O)cc3)coc2c1 |  | MIC | MTT |  | >50 µg/mL
COc1cc(C[C@H](C)[C@H](C)Cc2ccc(O)c(O)c2)ccc1O | ATCC 10231 | MIC50 | broth dilution |  | 31.25 µg/mL
CCCCn1sc2c(C(F)(F)F)cccc2c1=O | ATCC 2091 | MIC |  |  | 40 µg/mL
Clc1ccc(-n2ncc(C(c3ccccc3)n3ccnc3)c2-c2ccccc2Cl)c(Cl)c1 |  | MIC |  |  | 33.3 µM

9 of the rows above, restated:

smiles	strain	read-out	read by	changes	value
CN1CCC2=C(CCCC2CCc2cccc(Cl)c2)C1	2381E	MIC			16 µg/mL
COc1ccc(/C=C/C(=O)c2ccccc2)c(OC)c1	ATCC 10231	MIC			>50 µg/mL
C[C@@H]1O[C@@H](O[C@@H]2[C@@H](O)[C@H](OCCc3ccc(O)c(O)c3)O[C@@H](CO)[C@H]2OC(=O)/C=C/c2ccc(O)c(O)c2)[C@H](O)[C@H](O)[C@H]1O	ATCC 10231	MFC	broth dilution		250 µg/mL
O=C(O)c1ccc(/C=C/C(=O)c2ccc(O)cc2)cc1	1 clinical isolate	MIC			>32 µg/mL
CC1(C)C[C@H](N)[C@H](C(=O)O)C1		EC50			256 µg/mL
CCN1c2ccccc2N(CCc2ccccc2)C1C(=S)Nc1ccccc1		MIC			400 µg/mL
N[C@H]1CC(F)(F)C[C@H]1C(=O)O		EC50			128 µg/mL
CN1c2ccccc2N(CCc2ccccc2)C1C(=S)Nc1ccccc1		MIC			800 µg/mL
Cc1cccnc1-n1[se]c2ccccc2c1=O		MIC			>500 µg/mL